# pIC50: −log10 of the molar value.
# What was measured:
# [1] = tested on: HIV-1 Tat transactivation; experiment: HIV-LTR-luciferase assay in 1G5 cells transfected with Tat plasmids; format: cell-based; details: four days
# Experimental: An HIV-1 transactivation protein (Tat) is a regulatory protein dramatically enhancing HIV-1 transcription through the interaction with the tat-transcriptional active region (TAR). […] In the present invention, as a Jurkat-derived cell line, 1G5 containing a stably-inserted HIV-LTR-luciferase construct was used.
# The 1G5 cells were transfected with Tat plasmids. […] Four days after the infection, the transactivation of HIV-LTR was analyzed through a luciferase assay.
# [2] = tested on: HIV-1-infected MT-4 cells; experiment: Cell protective effect from HIV-1-induced cell death in MT-4 cells; format: cell-based, human; details: 5 days
# Experimental: (§1) MT-4, 1G5 or ACH-2 cells were seeded in a 96-well microplate at a density of 1×10^4 cells/well, and incubated with increasing concentrations of PEP1 for 5 days. Cell viability was determined by colorimetry using a CellTiter96 Aqueous One Solution assay kit (Promega, Wis.) according to the manufacturer's instructions. To assess the cell protective effect of PEP1 from HIV-1-induced cell death, MT-4 cells (1×10^4) were infected with the HIV-1 virus (4×10^5 CCID50) for 5 days with or without PEP1, and subjected to a cell viability assay.
# It has been known that apoptosis of HIV-infected cells occurs by an intracellular cell death mechanism.
# ACH-2 cells = experiment: Cell cytotoxicity assay, ACH-2 cells; format: cell-based, human; details: up to 25 μM, 5 days
# Experimental: as §1
# HIV-1 [3] = details: ACH-2 cells
# HIV-1 [4] = details: MT-4 cells
# p65 NF-κB = experiment: Electrophoretic mobility shift assay (EMSA) of NF-κB in MT-4 cells; format: cell-based, human; details: nuclear fraction, 24 hours
# Source text: (§2) NF-κB triggers HIV transcription by interacting with an NF-κB-binding site in HIV-LTR, and increases the activation of TAT-mediated LTR […]. In addition, Tat can directly activate NF-κB. Recently, there have been studies showing that eHSP90 can regulate various intracellular signaling pathways, including the NF-κB pathway. […] A similar result was obtained from ACH-2 cells latently infected with HIV-1 (FIG. 40).
# 1G5 cells = experiment: Cell cytotoxicity assay, 1G5 cells; format: cell-based, human; details: up to 25 μM, 5 days
# Experimental: as §1
# NF-κB = NF-κB dual-luciferase assay in MT-4 cells; format: cell-based, human
# Source text: NF-κB triggers HIV transcription by interacting with an NF-κB-binding site in HIV-LTR, and increases the activation of TAT-mediated LTR […]. In addition, Tat can directly activate NF-κB. Recently, there have been studies showing that eHSP90 can regulate various intracellular signaling pathways, including the NF-κB pathway.
# MT-4 cells = experiment: Cell cytotoxicity assay, MT-4 cells; format: cell-based, human; details: up to 25 μM, 5 days
# Experimental: as §1
# HIV-1 [5] = tested on: HIV-1
# Experimental: The MT-4 cells (4×10^5 cells) were infected with HIV-1 (4×10^5 50% cell culture infective dose (CCID50)) for one hour. […] After two days of incubation, images of the MT-4 cells expressing eGFP were obtained using a fluorescence microscope before harvesting the cells. To remove cell debris, the collected supernatant was subjected to centrifugation at 13,000 rpm for 3 minutes, and to measure an extracellular viral amount, p24 ELISA or RNA extraction was performed for a reverse transcription-quantitative polymerase chain reaction (RT-qPCR). Meanwhile, the cell pellets were washed with D-PBS twice, and used for a cell viability assay. […] HIV-1 replication was analyzed by p24 ELISA, and eGFP was monitored using a fluorescent microscope.
# (§3) To measure HIV-1 virus titers, HIV-1 p24 antigen capture ELISA (p24 ELISA, ABL) and RT-qPCT assay were performed according to the manufacturer's instructions. HIV-1 RNA genomes were purified from the cell culture supernatants and pellets using a QIAamp Ultrasens Virus kit (Qiagen, Hilden, Germany) according to the manufacturer's instructions. The HIV-1 RNA levels were quantified by RT-qPCR using a primer pair specific to gag of HIV-1. Glyceraldehyde phosphate dehydrogenase (GAPDH) was used as a reference gene for normalization. The following primer pairs were used for qPCR: Gag, 5′-[…]-3′ (sense, SEQ ID NO: 5) and 5′-[…]-3′ (antisense, SEQ ID NO: 6); and GAPDH, 5′-[…]-3′ (sense, SEQ ID NO: 7) and 5′-[…]-3′ (antisense, SEQ ID NO: 8). An HIV type 1 Genesig Standard kit (Primerdesign, Southampton, UK) was used to measure virus titers. The concentration of the stocked virus was 2×10^5 copies/μl.
# NF-κB (p65) = NF-κB (p65) phosphorylation; format: cell-based, human
# Source text: as §2
# HIV-1 viral mRNA = HIV-1 viral mRNA level by RT-qPCR in MT-4 cells; format: cell-based
# Experimental: as §3
compound,measurement,setting,value
"CC[C@H](C)[C@H](NC(=O)[C@H](Cc1ccccc1)NC(=O)[C@H](CCCNC(=N)N)NC(=O)[C@H](CC(C)C)NC(=O)[C@H](CCCNC(=N)N)NC(=O)[C@H](CO)NC(=O)[C@@H](NC(=O)[C@H](CC(C)C)NC(=O)[C@H](CC(C)C)NC(=O)[C@H](C)NC(=O)[C@@H]1CCCN1C(=O)[C@H](CCCNC(=N)N)NC(=O)[C@H](C)NC(=O)[C@@H](N)CCC(=O)O)[C@@H](C)O)C(=O)N1CCC[C@H]1C(=O)N[C@@H](CCCCN)C(=O)O [PEP1, EARPALLTSRLRFIPK]",HIV-LTR luciferase activity activated by ectopic expression of Tat,[1],inhibits the activation of HIV-LTR luciferase activity
same,Cell protective action from HIV-1-mediated cell death,"[2]; 5 μM, MT-4 cells",~100%
same,Cell protective effect,[2]; HIV-1-infected MT-4 cells,considerable cell protective effects in a dose-dependent manner
same,Cytotoxicity,ACH-2 cells,did not exhibit significant cytotoxicity
same,PMA-increased supernatant p24 level,"HIV-1 [3]; PMA 50 nM, 24 hours, p24 ELISA",eliminated almost all of such an effect
same,Viral genomic RNA of produced viral particles after PMA,"HIV-1 [3]; RT-qPCR, stepwise increasing concentrations",considerably reduced in a dose-dependent manner
same,Inhibitory activity by eGFP expression when treated 12 hours after infection,HIV-1 [4],weakened
same,p65 NF-κB activation (DNA binding),p65 NF-κB,apparent decrease
same,Cytotoxicity,1G5 cells,did not exhibit significant cytotoxicity
same,NF-κB inhibitory effect after HSP90 blocking antibodies or HSP inhibitor,NF-κB,completely eliminated
same,NF-κB inhibitory effect after anti-GAPDH antibodies,NF-κB,no significant effects
same,Basal NF-κB activity,NF-κB; 24 hours,dramatically reduced
same,Cytotoxicity,MT-4 cells,did not exhibit significant cytotoxicity
same,Decrease in viral RNA level,"HIV-1 [5]; 5 μM PEP1, HIV-1-infected MT-4 cells",approximately 100 times
same,eGFP production,HIV-1 [5]; HIV-1-infected MT-4 cells,decreased
same,Anti-HIV effect in the presence of 17-AAG,"HIV-1 [5]; MT-4 cells, 17-AAG 1 μM, p24 ELISA",eliminated the PEP1 effect
same,Inhibition of eGFP expression after anti-HSP90 antibodies,"HIV-1 [5]; MT-4 cells, fluorescence / immunoblotting",restored
same,Inhibition of HIV-1 production after anti-GAPDH antibodies (isotype control),"HIV-1 [5]; MT-4 cells, p24 ELISA",no significant effect
same,Inhibition of HIV-1 production after anti-HSP70-neutralization antibodies,"HIV-1 [5]; MT-4 cells, p24 ELISA",partial restoration
same,Inhibition of HIV-1 production after anti-HSP90 neutralization antibodies,"HIV-1 [5]; MT-4 cells, p24 ELISA",completely restored
same,pIC50,"HIV-1 [5]; read-out: mean 50% inhibitory concentration (IC50), production of viral particles, HIV-1-infected MT-4 cells, p24 ELISA",~6.07
same,NF-κB (p65) phosphorylation,NF-κB (p65),decrease in NF-κB (p65) phosphorylation
same,Housekeeping host GAPDH mRNA synthesis,HIV-1 viral mRNA,no significant change
same,"Viral mRNA production, treated 9 hours after infection",HIV-1 viral mRNA,effectively inhibited
same,"Viral mRNA, treated 13 hours after infection",HIV-1 viral mRNA,lost the activity to reduce viral mRNA

# Reference: patent US11015179B2, “Peptide having anti-viral effect and composition containing same” (priority 2015, dated 2021)
